Patent US20190352376A1 (NATIONAL RESEARCH COUNCIL OF CANADA, published 2019)

What was measured:
[1] = biological target: hemagglutinin of H3N1 A/Victoria/361/2011 (influenza virus H3N1 A/Victoria/361/2011); test: dot blot, 4M urea; VLP (plant/MedG), dot 22
[2] = biological target: hemagglutinin of H1N1 A/California/06/2008 (influenza virus H1N1 …); test: dot blot, 4M urea; VLP (plant/MedG), dot 24

Binder	signal intensity [1]	signal intensity [2]
F211-10A9 (antibody, V domains shown) VH: QIQLQQSGPELVKPGAPVKISCKASGYTFTDYYIHWVNQRPGQGLEWIGYIYPGNGHTVYNQKFKVRATLTADNPSSTAYLQLNSLTSEDSGVYFCAYDLFNYWGQGTLVTVSA VL: DIVMTQSPSSLAMSVGQKVTMSCKSSQSLLNSDTQKNFLAWYQQKPGQSPKILVYFASTKESGVPDRFIGSGSGTDFTLTITSVQAEDLADYFCQQYYSIPLTFGAGTKLELK	34000 arbitrary fluorescent units	55100 arbitrary fluorescent units
F211-11H12 (antibody, V domains shown) VH: DVQLQESGPGLVKPSQSLSLTCSVTGYSITSDYYWNWIRQFPGNKLEWMAYIGYDGTKNYNPSLKNRISITRDTSKNQFFLKLNSVTTDDTATYYCTRDRANWDDYFDYWGQGTTLTVSS VL: DIVMSQSPSSLAVSVGEKVTMSCKSSQSLLNSRNQKNHLAWYQQKPGQSPKLLIYWASTRESGVPDRFTGDGSGTDFTLTISSVKAEDLAVYYCQQYYTYRTFGGGTKLEIK	3700 arbitrary fluorescent units	54100 arbitrary fluorescent units
F211-9D1 (antibody, V domains shown) VH: DVQLQESGPGLVKPSQSLSLTCSVTGYSITSDYYWNWIRQFPGNKLEWMAYIGYDGSKNYNPSLKNRISITRDTSKNQFFLKLNSVTTDDTATYYCTRDRANWDDYFDYWGQGTTLTVSS VL: DIVMSQSPSSLAVSVGEKVTMSCKSSQSLLNSRNQKNHLAWYQQKPGQSPKLLIYWASTRESGVPDRFSGDGSGTDFTLTISSVKAEDLAVYYCQQYYTYRTFGGGTKLEIK	4290 arbitrary fluorescent units	55400 arbitrary fluorescent units
